Pooled drug test results. Numbers come from NIAID ChemDB, via PubChem.

All rows: tests in culture; organism: HIV-1; measure: EC50

Conditions beyond the fields shown may differ between rows. ECn is the concentration giving n% inhibition of infection, replication or growth. Blank or dashed fields: not listed here.

compound	strain	cell line	read by	changes	result
CCCCCCCCCCCCCCCC(=O)OCC(COC(=O)CCCCCCCCCCCCCCC)OC(=O)CCC(=O)O[C@@H]1Cc2ccccc2[C@@H]1NC(=O)[C@H](Cc1ccccc1)C[C@H](O)CN1CCN(Cc2cccnc2)C[C@H]1C(=O)NC(C)(C)C	LAI	CEM	RT activity		2.6 µM
Cc1occc1C(=S)Nc1ccc(Cl)c(/C=N/OC(C)(C)C)c1	IIIB	CEM	syncytia	RT-E138K	0.214 µM
Cc1ccc(C)c(CS(=O)(=O)c2c(O)ccc[n+]2[O-])c1	IIIB	CEM	syncytia		45 µg/mL
CC1CC(C)CN(S(=O)(=O)c2ccccc2[N+](=O)[O-])C1	14AG	HeLa	GFP / fluorescence		0.16 µM
Cc1ccc(C)c(C(CC(C)C)S(=O)(=O)c2cccc[n+]2[O-])c1	IIIB	CEM	syncytia		>4 µg/mL
Cc1c(O)cccc1C(=O)N[C@@H](CSc1ccccc1)[C@@H](CN1C[C@H]2CCCC[C@H]2C[C@H]1C(=O)NC(C)(C)C)OC(=O)CCCCOc1ccc(C[C@H](NC(=O)OC(C)(C)C)C(=O)O)cc1	LAI	CEM	RT activity		0.54 µM
O=S(=O)(Cc1ccc(-c2ccccc2)cc1)c1cccc[n+]1[O-]	IIIB	CEM	syncytia		≥4 µg/mL
O=C(O)c1cn(-c2cccc(N3CCOCC3)c2)c2nc(N3CCN(c4ccc(F)cc4)CC3)c(F)cc2c1=O		PBL	syncytia		0.6 µM
N#C/C(=C/c1c(Cl)cccc1Cl)S(=O)(=O)c1cccc[n+]1[O-]	IIIB	CEM	syncytia		>4 µg/mL
CC(C)CCC[C@@H](C)[C@H]1CC[C@H]2[C@@H]3CC[C@H]4C[C@@H](CCC=C(c5cc(Cl)c(O)c(C(=O)O)c5)c5cc(Cl)c(O)c(C(=O)O)c5)CC[C@]4(C)[C@H]3CC[C@]12C	RF	CEM + CEM-SS	cytopathic effect / XTT		5.1 µM
O=C(O)c1cn(-c2ccc(N3CCOCC3)cc2)c2c(Cl)c(N3CCN(c4ccccc4)CC3)c(F)cc2c1=O		PBL	syncytia		0.3 µM
Cc1c(O)cccc1C(=O)N[C@@H](CSc1ccccc1)[C@@H](CN1C[C@H]2CCCC[C@H]2C[C@H]1C(=O)NC(C)(C)C)OC(=O)NCCCCOc1ccc(C[C@H](N)C(=O)O)cc1	LAI	CEM	RT activity		>10 µM
Cc1ccc[n+]([O-])c1S(=O)(=O)Cc1cccc([N+](=O)[O-])c1C	IIIB	CEM	syncytia		≥4 µg/mL
O=C(O)c1cn(-c2cccc(N3CCOCC3)c2)c2c(Cl)c(N3CCN(c4ccc(F)cc4)CC3)c(F)cc2c1=O		PBL	syncytia		0.4 µM
Cc1c(OC(=O)CCCCOc2ccc(C[C@H](NC(=O)OC(C)(C)C)C(=O)O)cc2)cccc1C(=O)N[C@@H](CSc1ccccc1)[C@@H](CN1C[C@H]2CCCC[C@H]2C[C@H]1C(=O)NC(C)(C)C)OC(=O)CCCCOc1ccc(C[C@H](NC(=O)OC(C)(C)C)C(=O)O)cc1	IIIB	MT-4	cytopathic effect / MTT		4.7 µM
COC(=O)C(c1cccc(Oc2ccccc2)c1)S(=O)(=O)c1cccc[n+]1[O-]	IIIB	CEM	syncytia		>4 µg/mL
CC(C)=CCOc1cc(NC(=S)c2ccoc2C)ccc1Cl	IIIB	CEM	syncytia		0.009 µM
CCCCCCCC/C=C\CCCCCCCC(=O)O[C@H](CN1C[C@H]2CCCC[C@H]2C[C@H]1C(=O)NC(C)(C)C)[C@H](Cc1ccccc1)NC(=O)[C@H](CC(N)=O)NC(=O)c1ccc2ccccc2n1	IIIB	MT-4	cytopathic effect / MTT		2.7 µM
O=C(O)c1cn(-c2cccc(N3CCOCC3)c2)c2cc(N3CCN(c4ccc(F)cc4)CC3)c(F)cc2c1=O		PBL	syncytia		0.3 µM
CC(=O)c1c(C)nc(-c2ccccc2)nc1NC(=O)c1ccccc1	G-3	HeLa	GFP / fluorescence		0.02 µM
CCOc1ccccc1CS(=O)c1cccc[n+]1[O-]	IIIB	CEM	syncytia		>20 µg/mL
Cc1c(OC(=O)CCCCOc2ccc(C[C@H](N)C(=O)O)cc2)cccc1C(=O)N[C@@H](CSc1ccccc1)[C@H](O)CN1C[C@H]2CCCC[C@H]2C[C@H]1C(=O)NC(C)(C)C	LAI	CEM	RT activity		0.021 µM

A second listing of 2 rows from above:

compound	strain	cell line	read by	changes	result
CCCCCCCCCCCCCCCC(=O)OCC(COC(=O)CCCCCCCCCCCCCCC)OC(=O)CCC(=O)O[C@@H]1Cc2ccccc2[C@@H]1NC(=O)[C@H](Cc1ccccc1)C[C@H](O)CN1CCN(Cc2cccnc2)C[C@H]1C(=O)NC(C)(C)C	LAI	CEM	RT activity		2.6 µM
Cc1c(OC(=O)CCCCOc2ccc(C[C@H](NC(=O)OC(C)(C)C)C(=O)O)cc2)cccc1C(=O)N[C@@H](CSc1ccccc1)[C@@H](CN1C[C@H]2CCCC[C@H]2C[C@H]1C(=O)NC(C)(C)C)OC(=O)CCCCOc1ccc(C[C@H](NC(=O)OC(C)(C)C)C(=O)O)cc1	IIIB	MT-4	cytopathic effect / MTT		4.7 µM